Read-outs that look alike come from different tables or passages of the source.

This series deals with coronal proteins on NPs. On the set-up: species or system mouse. Particulars: for V5 Sera_Nanoparticles Quantitative Value (Normalized Total Spectra): 20:1 NP:sera, centrifuged and washed; for V5 Sera Alone (Control) Quantitative Value (Normalized Total Spectra): IAV day 5 (V5) mouse sera alone.

B1: Mannan-binding lectin serine protease 1 (protein, UniProt P98064 25-704, looked up)
Mannan-binding lectin serine …: HTVELNEMFGQIQSPGYPDSYPSDSEVTWNITVPEGFRIKLYFMHFNLESSYLCEYDYVKVETEDQVLATFCGRETTDTEQTPGQEVVLSPGTFMSVTFRSDFSNEERFTGFDAHYMAVDVDECKEREDEELSCDHYCHNYIGGYYCSCRFGYILHTDNRTCRVECSGNLFTQRTGTITSPDYPNPYPKSSECSYTIDLEEGFMVSLQFEDIFDIEDHPEVPCPYDYIKIKAGSKVWGPFCGEKSPEPISTQTHSVQILFRSDNSGENRGWRLSYRAAGNECPKLQPPVYGKIEPSQAVYSFKDQVLVSCDTGYKVLKDNEVMDTFQIECLKDGAWSNKIPTCKIVDCGAPAGLKHGLVTFSTRNNLTTYKSEIRYSCQQPYYKMLHNTTGVYTCSAHGTWTNEVLKRSLPTCLPVCGVPKFSRKQISRIFNGRPAQKGTMPWIAMLSHLNGQPFCGGSLLGSNWVLTAAHCLHQSLDPEEPTLHSSYLLSPSDFKIIMGKHWRRRSDEDEQHLHVKRTTLHPLYNPSTFENDLGLVELSESPRLNDFVMPVCLPEQPSTEGTMVIVSGWGKQFLQRFPENLMEIEIPIVNSDTCQEAYTPLKKKVTKDMICAGEKEGGKDACAGDSGGPMVTKDAERDQWYLVGVVSWGEDCGKKDRYGVYSYIYPNKDWIQRITGVRN
In the case of B1, the “V5 Sera_Nanoparticles Quantitative Value (Normalized Total Spectra)” value (HBPE-NPs incubated with IAV day 5 (V5) mouse sera 1 h) worked out at 0. Besides, the “V5 Sera Alone (Control) Quantitative Value (Normalized Total Spectra)” value (no NPs, mass spectrometry protein identification) is recorded as 0.9252.

B2: Complement factor H (protein, UniProt P06909 19-1234, looked up)
Complement factor H: EDCKGPPPRENSEILSGSWSEQLYPEGTQATYKCRPGYRTLGTIVKVCKNGKWVASNPSRICRKKPCGHPGDTPFGSFRLAVGSQFEFGAKVVYTCDDGYQLLGEIDYRECGADGWINDIPLCEVVKCLPVTELENGRIVSGAAETDQEYYFGQVVRFECNSGFKIEGHKEIHCSENGLWSNEKPRCVEILCTPPRVENGDGINVKPVYKENERYHYKCKHGYVPKERGDAVCTGSGWSSQPFCEEKRCSPPYILNGIYTPHRIIHRSDDEIRYECNYGFYPVTGSTVSKCTPTGWIPVPRCTLKPCEFPQFKYGRLYYEESLRPNFPVSIGNKYSYKCDNGFSPPSGYSWDYLRCTAQGWEPEVPCVRKCVFHYVENGDSAYWEKVYVQGQSLKVQCYNGYSLQNGQDTMTCTENGWSPPPKCIRIKTCSASDIHIDNGFLSESSSIYALNRETSYRCKQGYVTNTGEISGSITCLQNGWSPQPSCIKSCDMPVFENSITKNTRTWFKLNDKLDYECLVGFENEYKHTKGSITCTYYGWSDTPSCYERECSVPTLDRKLVVSPRKEKYRVGDLLEFSCHSGHRVGPDSVQCYHFGWSPGFPTCKGQVASCAPPLEILNGEINGAKKVEYSHGEVVKYDCKPRFLLKGPNKIQCVDGNWTTLPVCIEEERTCGDIPELEHGSAKCSVPPYHHGDSVEFICEENFTMIGHGSVSCISGKWTQLPKCVATDQLEKCRVLKSTGIEAIKPKLTEFTHNSTMDYKCRDKQEYERSICINGKWDPEPNCTSKTSCPPPPQIPNTQVIETTVKYLDGEKLSVLCQDNYLTQDSEEMVCKDGRWQSLPRCIEKIPCSQPPTIEHGSINLPRSSEERRDSIESSSHEHGTTFSYVCDDGFRIPEENRITCYMGKWSTPPRCVGLPCGPPPSIPLGTVSLELESYQHGEEVTYHCSTGFGIDGPAFIICEGGKWSDPPKCIKTDCDVLPTVKNAIIRGKSKKSYRTGEQVTFRCQSPYQMNGSDTVTCVNSRWIGQPVCKDNSCVDPPHVPNATIVTRTKNKYLHGDRVRYECNKPLELFGQVEVMCENGIWTEKPKCRDSTGKCGPPPPIDNGDITSLSLPVYEPLSSVEYQCQKYYLLKGKKTITCRNGKWSEPPTCLHACVIPENIMESHNIILKWRHTEKIYSHSGEDIEFGCKYGYYKARDSPPFRTKCINGTINYPTCV
For the molecule B2, the “V5 Sera_Nanoparticles Quantitative Value (Normalized Total Spectra)” value (HBPE-NPs incubated 1 h with IAV day 5 (V5) mouse sera) came out at 27.198. Further, the “V5 Sera Alone (Control) Quantitative Value (Normalized Total Spectra)” value (no NPs (sera-only control)) worked out at 124.91.

Values taken from patent US20240122867A1, “CORONAL PROTEIN-COATED NANOPARTICLES AND USES THEREOF” (UNIVERSITY OF CENTRAL FLORIDA RESEARCH FOUNDATION, INC., priority 2021, published 2024).
